# Reference: PubChem BioAssay AID504761 (Drosophila RNAi Screening Center, 2011)
# Screen: 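Genome-wide fly cell screen for genes dengue virus requires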 (primary screen)
# System: D.Mel-2 cells from Drosophila
# Reagents: long dsRNA against Drosophila genes
# Treatment: infection with dengue virus type 2; dose and infection time not stated
# Read-out: 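Cells stained for dengue envelope protein and imaged; percent of infected cells per well on duplicate plates, ranked by infection, with stained nuclei counted for cell number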
# Direction: infection score: higher = more virus-infected cells; cell count: higher = more cells in the well
# Hit rule: 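Very low infection ranking in both replicate wells (chance probability at most 0.065), then a retest showing infection dropped 1.5-fold or more at p below 0.05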
# Calls: active = confirmed: knock-down lowers infection; inactive = not picked or not confirmed
# The deposit covers about 22,000 reagents; below is an unselected part of those with a known target gene and a result. Over the whole deposit, 116 (0.52%) got an active call. 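Calls depend on retest data that are not deposited; infection was ranked per plate without normalising between plates; the unit of the infection score is not given.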 Raw values vary from plate to plate and are shown uncorrected. Names joined by + are all predicted targets of the reagent. The record does not give: the amount of reagent, the time to read-out.
Gene,amplicon,"infection score, replicate 1","infection score, replicate 2","cell count, replicate 1","cell count, replicate 2",Call
Dgk (GeneID 35738),DRSC05064,1.91,0.34,6073,5805,inactive
Dgk (GeneID 35738),DRSC05065,1.44,4.69,6118,5796,inactive
Dgk (GeneID 35738),DRSC06171,15.2,23,5895,4289,inactive
Dgk (GeneID 35738),DRSC06782,1.59,7.98,6395,6476,inactive
Dgk (GeneID 35738),DRSC25166,3.57,7.54,6355,5888,inactive
CG7772 (GeneID 32776),DRSC20056,1.28,8.89,6253,6738,inactive
CG5174 (GeneID 37117),DRSC06920,10.2,9.52,6291,6604,inactive
CG5174 (GeneID 37117),DRSC28048,9.03,3.26,6110,6196,inactive
CG42340 (GeneID 7354472),DRSC17458,3.67,11.4,5946,6209,inactive
CG42340 (GeneID 7354472),DRSC17841,3.15,2.05,5455,6042,inactive
CG42340 (GeneID 7354472),DRSC18305,26.4,19.8,4973,3462,inactive
CG42340 (GeneID 7354472),DRSC21619,8.48,7.06,6095,5995,inactive
CG42340 (GeneID 7354472),DRSC23657,5.77,4.04,6478,6330,inactive
rogdi (GeneID 39917),DRSC10906,7.37,23.6,6066,5461,inactive
Liprin-beta (GeneID 39524),DRSC09795,1.67,1.35,6350,6668,inactive
Liprin-beta (GeneID 39524),DRSC23339,1.12,8.21,6849,6882,inactive
Liprin-beta (GeneID 39524),DRSC28695,1.95,,872,438,inactive
phr6-4 (GeneID 35322),DRSC03589,3.06,10.4,6755,6537,inactive
phr6-4 (GeneID 35322),DRSC26873,1.42,1.11,6419,6193,active
Qsox1 (GeneID 36464),DRSC06878,2.34,6.66,6400,6536,inactive
Qsox1 (GeneID 36464),DRSC29927,6.78,11.6,6016,5644,inactive
CG13230 (GeneID 50237),DRSC06350,3.09,2.35,6955,6685,inactive
CG13230 (GeneID 50237),DRSC26778,14.3,7.07,6419,6227,inactive
CG15124 (GeneID 37256),DRSC06546,5.54,1.93,5973,6753,inactive
CG8136 (GeneID 41037),DRSC16385,1.84,7.2,6455,6615,inactive
CG8136 (GeneID 41037),DRSC28135,3.17,11.2,6709,5154,inactive
Tis11 (GeneID 32222),DRSC23110,1.79,7.63,6603,6458,inactive
Dus3 (GeneID 35264),DRSC02059,19.7,3.97,5625,6526,inactive
Dus3 (GeneID 35264),DRSC30102,4.58,8.75,6812,6117,inactive
Ddc (GeneID 35190),DRSC03314,20.1,4.02,5489,6547,inactive
Tsp66A + CG42661 + CG42660,DRSC10233,4.46,24.8,6118,5327,inactive
CG34002 (GeneID 3885644),DRSC09512,1.66,0.86,6020,6063,inactive
CG34002 (GeneID 3885644),DRSC11953,3.22,0.42,6126,6667,inactive
CG34002 (GeneID 3885644),DRSC26854,2.99,6.98,6757,6391,inactive
nec (GeneID 45908),DRSC06769,2.5,0.61,6718,494,inactive
robo1 (GeneID 37603),DRSC04712,9.37,7.66,6934,7036,inactive
CG10911 (GeneID 37058),DRSC06008,7.66,8.69,6396,6883,inactive
CG4477 (GeneID 39058),DRSC10425,1.57,4.96,6102,6236,inactive

Continued; the last 8 above are carried over.
Gene,amplicon,"infection score, replicate 1","infection score, replicate 2","cell count, replicate 1","cell count, replicate 2",Call
Tsp66A + CG42661 + CG42660,DRSC10233,4.46,24.8,6118,5327,inactive
CG34002 (GeneID 3885644),DRSC09512,1.66,0.86,6020,6063,inactive
CG34002 (GeneID 3885644),DRSC11953,3.22,0.42,6126,6667,inactive
CG34002 (GeneID 3885644),DRSC26854,2.99,6.98,6757,6391,inactive
nec (GeneID 45908),DRSC06769,2.5,0.61,6718,494,inactive
robo1 (GeneID 37603),DRSC04712,9.37,7.66,6934,7036,inactive
CG10911 (GeneID 37058),DRSC06008,7.66,8.69,6396,6883,inactive
CG4477 (GeneID 39058),DRSC10425,1.57,4.96,6102,6236,inactive
CG4151 (GeneID 31465),DRSC18351,5.14,3.95,5892,5922,inactive
CG13319 (GeneID 36423),DRSC06356,2.33,3.36,6058,6069,inactive
CG15544 (GeneID 43655),DRSC15082,4.9,,1101,328,inactive
CG15544 (GeneID 43655),DRSC25686,1.86,6.11,6342,6297,inactive
CG3301 (GeneID 42528),DRSC15471,4.5,6.41,6181,6477,inactive
shot (GeneID 36542),DRSC05459,2.97,1.43,6168,5445,inactive
shot (GeneID 36542),DRSC05460,6.37,6.54,6410,6177,inactive
shot (GeneID 36542),DRSC07682,32.3,20.7,5751,5976,inactive
shot (GeneID 36542),DRSC25070,4.78,0.93,5716,6027,inactive
NSD (GeneID 43351),DRSC15691,11.8,9.49,5445,1812,inactive
CG30156 (GeneID 246488),DRSC04959,1.84,0.67,6134,5979,inactive
exu (GeneID 37345),DRSC07615,14.3,7.62,5035,1076,inactive
CG16922 (retired record) (GeneID 32030),DRSC23140,0.67,4.23,6249,6832,inactive
CG16922 (retired record) (GeneID 32030),DRSC27994,26.5,6.4,5518,6685,inactive
Gr32a (GeneID 34545),DRSC02400,30,10.8,6226,6588,inactive
beg (GeneID 39910),DRSC10923,7.18,9.36,6599,6851,inactive
l(3)mbn (GeneID 38701),DRSC08793,4.62,0.71,4853,845,inactive
ETH (GeneID 44125),DRSC04612,4.56,18.1,6405,5929,inactive
CG6443 (GeneID 34477),DRSC02958,15.2,13.8,5746,5349,inactive
CG6443 (GeneID 34477),DRSC30036,8.12,6.48,5803,5802,inactive
